Experimental data as given in PubChem BioAssay AID276 (DTP/NCI, 2004).
Where “and” joins values, the source holds several entries; their conditions need not be identical. Equal entries are not always repeated. Inconclusive results and toxic doses are left out.

System: B6C3F1 mice, Lewis lung carcinoma iv, survival T/C
Test: NCI In Vivo Anticancer Drug Screen. Data for tumor model Lewis Lung Carcinoma (intravenous) in B6C3F1 mice
Conditions: endpoint: median survival time, schedule: Q01DX009 (ip), vehicle: saline, higher = longer survival
Method: The antitumor activity of compounds was measured in mice bearing transplantable tumors. Survival or tumor size were measured and the results are expressed as the measurement made in the treated group (T) divided by the measurement made in the vehicle treated control group (C). The tumor model used in this assay is Lewis Lung Carcinoma (intravenous) in B6C3F1 mice

SMILES: O=P1(N(CCCl)CCCl)NC(SCCS(=O)(=O)O)CCO1 (centres undefined)
- T/C (dose: 12.5 mg/kg/injection): 101 % of control
- T/C (dose: 25.0 mg/kg/injection): 119 % of control
- T/C (dose: 50.0 mg/kg/injection): 173 % of control
- T/C (dose: 100.0 mg/kg/injection): 279 % of control and 294 % of control
